Data taken from ChEMBL document CHEMBL1157539, “Thousands of chemical starting points for antimalarial lead identification” (Nature, 2010).

Tested on: Plasmodium falciparum
Experiment: GSK_TCMDC: Inhibition of Plasmodium falciparum 3D7 in whole erythrocytes, using parasite LDH activity as an index of growth.
Type: functional, organism-based

COc1cc(C(=O)NC(SC2=NCCS2)C(Cl)(Cl)Cl)cc(OC)c1OC (stereo unspecified)
XC50: 0.984 µM
